Columns and labels:
[1] = molecular target: T1, EloB([…])/EloC([…])/Vif([…]) (human; HIV-1 (group M, subtype B))
[2] = molecular target: EloB([…])-linker-Vif([…])/EloC([…]) (human EloB; HIV-1 (group M, subtype B; …); experiment: GST pull-down, SDS-PAGE (FIG. 11B)
[3] = molecular target: T1, EloB([…])/EloC([…])/Vif([…]); experiment: ITC, 30 C; GST-Cul5(N) titrated into the complex; one-site model

B1: GST-Cul5(N)(2-384)(V341R, L345D) (other)
chain: MGSPILGYWKIKGLVQPTRLLLEYLEEKYEEHLYERDEGDKWRNKKFELGLEFPNLPYYIDGDVKLTQSMAIIRYIADKHNMLGGCPKERAEISMLEGAVLDIRYGVSRIAYSKDFETLKVDFLSKLPEMLKMFEDRLCHKTYLNGDHVTHPDFMLYDALDVVLYMDPMCLDAFPKLVCFKKRIEAIPQIDKYLKSSKYIAWPLQGWQATFGGGDHPPKSDLEVLFQGPMHMGGSTSNLLKNKGSLQFEDKWDFMRPIVLKLLRQESVTKQQWFDLFSDVHAVCLWDDKGPAKIHQALKEDILEFIKQAQARVLSHQDDTALLKAYIVEWRKFFTQCDILPKPFCQLEITLMGKQGSNKKSNVEDSIVRKLMLDTWNESIFSNIKNRLQDSAMKLVHAERLGEAFDSQLVIGVRESYVNLCSNPEDKLQIYRDNFEKAYLDSTERFYRTQAPSYLQQNGVQNYMKYADAKLKEEEKRALRYLETRRECNSVEALMECCVNALVTSFKETILAECQGMIKRNETEKLHLMFSLMDKVPNGIEPMLKDLEEHIISAGLADMVAAAETITTDSEKYREQLDTLFNRFSKLVKEAFQDDPRFLTARDKAYKAVVNDATIFK
notes: also called GST-Cullin5 N-terminal protein; GST-Cul5 2-384
N [1]: 0.674 | ΔH [1]: -2020 | ΔS [1]: 23.4 | binding result [2]: binds | Ka [3]: 3.75e+06 M⁻¹ | Kd [3]: 266 nM

From US20120271036A1 (UNIVERSITY OF ROCHESTER, published 2012)
